Measurements published in patent publication US9518022B2, “Anti-HIV compounds” (priority 2014, dated 2016).

Tested on: HIV-1 NL4-3 viral clone engineered to express Renilla luciferase in place of Nef
Assay type: cell-based
Conditions: ratio of CC50 over EC50
Protocol: The present assay was used to screen candidate antiviral compounds by quantification of virus spread and production over several rounds of infection in vitro. MT-2, a HIV-1 permissive human T-cell line, was seeded in microtiter plates and was simultaneously treated with serially diluted compound and inoculated with a HIV-1 NL4-3 viral clone engineered to express Renilla luciferase in place of Nef. Following treatment, the culture was incubated for 96 hours. After the incubation, media was collected and used to estimate relative infectivity on the indicator cell line, TZM-bl. Additionally, viral spread was quantified by measuring luciferase activity via a commercially available luciferase substrate. In parallel, MT-2 cells were seeded and inoculated with mock virus in the presence of serially diluted compound. Compound toxicity was quantified 96 hours after treatment with AlamarBlue.
MT-2 (NIH Aids reagent program 237) cells were grown and maintained in an incubator at 37° C. with 5% CO2 using a basal medium of RPMI-1640 supplemented with 10% FBS. Cells were seeded in 100 μl at 2×10^4 cells/well in white walled 96-well microtiter plates. Candidate compounds were 3-fold serially diluted in the appropriate solvent. Solvent without compound was used as a no drug reference. Cells were inoculated at a multiplicity of 0.027 with an HIV-1 NL4-3 virus stock engineered to express Renilla luciferase in place of Nef. Diluted virus stock was first added to serially diluted compound. Compound and virus were delivered to cells in an equal volume (100 μl) and treated cultures were returned to the incubator for 96 hours. In parallel, plates for cytotoxicity estimates were prepared in the same way except cells were plated in clear walled 96-well microtiter plates and were mock infected.
At 96 hours post infection, 100 μl virus containing culture supernatant was collected from the treated and infected cultures and serially diluted in DMEM supplemented with 10% FBS, 1% sodium pyruvate, and 20 μg/ml DEAE dextran. One day prior, TZM-bl (ATCC PTA-5659) were cultured in basal medium of DMEM supplemented with 10% FBS and 1% sodium pyruvate and seeded at 7.5×10^3 cells/well in black walled 96-well microtiter plates. Diluted virus containing culture supernatant was transferred to TZM-bl cultures and incubated for 48 hours at 37° C. with 5% CO2. Infected TZM-bl cultures were fixed for 5 minutes with a 1% formaldehyde/0.2% gluteraldehyde/PBS solution then washed three times with PBS. Fixed cultures were incubated at 37° C. for 25 minutes with a 200 μg/ml MUG (4-Methylumbelliferyl β-D-[…])/DMEM solution. The reaction was stopped with an equal volume of 1M sodium carbonate and read at 360, 449 nm on fluorescence plate reader (Biotek).
At 96 hours post infection, 100 μl of culture supernatant was removed from the treated and infected cultures and EnduRen live cell substrate (Promega) was added at a final concentration 1.3 μg/ml. Cells were incubated for 1.5 hours at 37° C. with 5% CO2 then read on a luminescence plate reader (Biotek).
For all assays, data was imported into Accelrys Assay Explorer 3.3. In Assay Explorer, % inhibition (antiviral or cytotoxicity) was calculated using the solvent control as a reference by the following equation: 1−(SignalCompound/SignalReference). The % Inhibition and compound concentration data was fitted using the following 4-parameter logistic model (Assay Explorer model 42):
[formula] where X is compound concentration, Y is % inhibition, D is the maximum % Inhibition (constrained to 100%), C is IC50 value or inflection point, B is the hill slope, and A is the minimum % inhibition (constrained to 0%). The IC50 value is reported as the EC50 or CC50 depending on the assay endpoint. EC50 represents the effective concentration at which virus replication is inhibited by 50 percent. CC50 represents the concentration that results in the death of 50 percent of the host cells. […]

SMILES: COc1cc2c(cc1OCc1ccccc1)CCNC2/C=C/c1cccc2c1ccn2C(=O)OC(C)(C)C (stereo not drawn) [CK, tert-butyl 4-[(E)-2-[6-(benzyloxy)-7-methoxy-1,2,3,4-tetrahydroisoquinolin-1-yl]ethenyl]-1H-indole-1-carboxylate]
- SI: 7.4

SMILES: COc1cc2c(cc1OCc1ccccc1)CCNC2/C=C/c1cccc2[nH]ccc12 (stereo not drawn) [CL, 6-(benzyloxy)-1-[(E)-2-(1H-indol-4-yl)ethenyl]-7-methoxy-1,2,3,4-tetrahydroisoquinoline]
- SI: 4.66

SMILES: COc1cc2c(cc1OCc1ccccc1)CCNC2/C=C/c1ccc2c(ccn2C(=O)OC(C)(C)C)c1 (stereo not drawn) [CM, tert-butyl 5-[(E)-2-[6-(benzyloxy)-7-methoxy-1,2,3,4-tetrahydroisoquinolin-1-yl]ethenyl]-1H-indole-1-carboxylate]
- SI: 7.7

SMILES: COc1cc2c(cc1OCc1ccccc1)CCNC2/C=C/c1cccc2ccn(C(=O)OC(C)(C)C)c12 (stereo not drawn) [CN, tert-butyl 7-[(E)-2-[6-(benzyloxy)-7-methoxy-1,2,3,4-tetrahydroisoquinolin-1-yl]ethenyl]-1H-indole-1-carboxylate]
- SI: 11

SMILES: COc1cc2c(cc1OCc1ccccc1)CCNC2/C=C/c1ccc(F)c(O)c1F (stereo not drawn) [CO, 3-[(E)-2-[6-(benzyloxy)-7-methoxy-1,2,3,4-tetrahydroisoquinolin-1-yl]ethenyl]-2,6-difluorophenol]
- SI: 1.7

SMILES: COc1cc2c(cc1OCc1ccccc1)CCNC2/C=C/c1cccc(S(C)(=O)=O)c1 (stereo not drawn) [CP, 6-(benzyloxy)-1-[(E)-2-(3-methanesulfonylphenyl)ethenyl]-7-methoxy-1,2,3,4-tetrahydroisoquinoline]
- SI: 6.7

SMILES: COc1cc2c(cc1/C=C/C1NCCc3cc(OCc4ccccc4)c(OC)cc31)OCCO2 (stereo not drawn) [CQ, 6-(benzyloxy)-7-methoxy-1-[(E)-2-(7-methoxy-2,3-dihydro-1,4-benzodioxin-6-yl)ethenyl]-1,2,3,4-tetrahydroisoquinoline]
- SI: 23.7

SMILES: COc1cc2c(cc1/C=C/C1NCCc3cc(OCc4ccccc4)c(OC)cc31)OCO2 (stereo not drawn) [CR, 6-(benzyloxy)-7-methoxy-1-[(E)-2-(6-methoxy-2H-1,3-benzodioxol-5-yl)ethenyl]-1,2,3,4-tetrahydroisoquinoline]
- SI: 27.2

SMILES: COc1cc2c(cc1OCc1ccccc1)CCNC2/C=C/c1ccc2ccn(C(=O)OC(C)(C)C)c2c1 (stereo not drawn) [CS, tert-butyl 6-[(E)-2-[6-(benzyloxy)-7-methoxy-1,2,3,4-tetrahydroisoquinolin-1-yl]ethenyl]-1H-indole-1-carboxylate]
- SI: 6.7

SMILES: COc1cc(/C=C/C2NCCc3cc(OCc4ccccc4)c(OC)cc32)c(N(C)C)cc1OC (stereo not drawn) [CT, 2-[(E)-2-[6-(benzyloxy)-7-methoxy-1,2,3,4-tetrahydroisoquinolin-1-yl]ethenyl]-4,5-dimethoxy-N,N-dimethylaniline]
- SI: 45

SMILES: COc1cc2c(cc1OCc1ccccc1)CCNC2/C=C/c1cccnc1N(C)C (stereo not drawn) [CU, 3-[(E)-2-[6-(benzyloxy)-7-methoxy-1,2,3,4-tetrahydroisoquinolin-1-yl]ethenyl]-N,N-dimethylpyridin-2-amine]
- SI: 14

SMILES: COc1ncc(/C=C/C2NCCc3cc(OCc4ccccc4)c(OC)cc32)cn1 (stereo not drawn) [DD, 6-(benzyloxy)-7-methoxy-1-[(E)-2-(2-methoxypyrimidin-5-yl)ethenyl]-1,2,3,4-tetrahydroisoquinoline]
- SI: 9
